PubChem BioAssay AID1259414 | Drosophila RNAi Screening Center | 2018
In all, the deposit lists about 24,000 reagents; shown is a random part of those with a known target gene and a result. In the full data, about 1,210 (5%) got an active call. 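Inactive calls also include excluded dsRNAs with several or no targets, genes unexpressed in JW18, and well A1, regardless of score.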 Unmarked entries are inactive.

- Test: 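Fly genes that alter Wolbachia amount inside host cells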 (primary screen)
- Cells: Drosophila JW18 cells infected with Wolbachia
- Reagents: long dsRNA against Drosophila genes, 0.25 µg dsRNA per well of a 384-well plate
- Duration: 5 days
- Challenge: cells persistently infected with Wolbachia before knock-down; no added drug
- Measurement: 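Automated imaging of bacterial rRNA staining divided by host cell count, reported as plate-normalised robust z-score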
- Direction: Wolbachia per cell robust z: higher = more Wolbachia per host cell than the plate typical
- Call rule: 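Hit when robust z is 1.5 or more, or -1.5 or less, in at least two of three replicates; excludes dsRNAs with several or no targets, genes not expressed in JW18 and well A1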

Damm [DRSC07393] showed Wolbachia per cell robust z, rep 1 = -0.617; Wolbachia per cell robust z, rep 2 = 0.0819; Wolbachia per cell robust z, rep 3 = -2.93.
For CG12517 [DRSC02173], the values are Wolbachia per cell robust z, rep 1 = 0.841; Wolbachia per cell robust z, rep 2 = 0.475; Wolbachia per cell robust z, rep 3 = 1.24.
With knock-down of CG3770 [DRSC04416], the record shows Wolbachia per cell robust z, rep 1 = 0.758; Wolbachia per cell robust z, rep 2 = -2.3; Wolbachia per cell robust z, rep 3 = -0.151.
With knock-down of svp [DRSC12899] the results were Wolbachia per cell robust z, rep 1 = 0.337; Wolbachia per cell robust z, rep 2 = 0.964; Wolbachia per cell robust z, rep 3 = 1.15.
svp [DRSC17075] scored Wolbachia per cell robust z, rep 1 = -0.164; Wolbachia per cell robust z, rep 2 = 0.221; Wolbachia per cell robust z, rep 3 = 0.431.
Against svp [DRSC27764], the values are Wolbachia per cell robust z, rep 1 = -0.113; Wolbachia per cell robust z, rep 2 = -4.45; Wolbachia per cell robust z, rep 3 = -0.848.
With knock-down of Cyp6a21 [DRSC07381] the results were Wolbachia per cell robust z, rep 1 = -3.71; Wolbachia per cell robust z, rep 2 = -0.464; Wolbachia per cell robust z, rep 3 = -2.17.
Silencing of vilya [DRSC18588] came out at: Wolbachia per cell robust z, rep 1 = -1.86; Wolbachia per cell robust z, rep 2 = -0.538; Wolbachia per cell robust z, rep 3 = 0.282.
Knock-down of CG9702 [DRSC16540] resulted in: Wolbachia per cell robust z, rep 1 = -0.169; Wolbachia per cell robust z, rep 2 = -3.31; Wolbachia per cell robust z, rep 3 = -0.807.
With knock-down of CG31102 [DRSC14260] the results were Wolbachia per cell robust z, rep 1 = -1.67; Wolbachia per cell robust z, rep 2 = -0.0972; Wolbachia per cell robust z, rep 3 = 0.0434.
With knock-down of CG31102 [DRSC26350], the screen gave Wolbachia per cell robust z, rep 1 = 1.08; Wolbachia per cell robust z, rep 2 = 1.25; Wolbachia per cell robust z, rep 3 = 2.15.
Silencing of CG14543 [DRSC14887] gave: Wolbachia per cell robust z, rep 1 = 0.557; Wolbachia per cell robust z, rep 2 = -1.36; Wolbachia per cell robust z, rep 3 = 0.457.
With knock-down of CG14543 [DRSC26647], the record shows Wolbachia per cell robust z, rep 1 = 1.2; Wolbachia per cell robust z, rep 2 = 1.33; Wolbachia per cell robust z, rep 3 = 2.5.
Knock-down of unc80 [DRSC15329] gave: Wolbachia per cell robust z, rep 1 = 0.757; Wolbachia per cell robust z, rep 2 = -0.125; Wolbachia per cell robust z, rep 3 = 0.45.
cold [DRSC00538] showed Wolbachia per cell robust z, rep 1 = 1.28; Wolbachia per cell robust z, rep 2 = -0.409; Wolbachia per cell robust z, rep 3 = 0.448.

2 entries from above, sorted by “Wolbachia per cell robust z, rep 1”, lowest first:
CG31102 [DRSC14260]: Wolbachia per cell robust z, rep 1 = -1.67; Wolbachia per cell robust z, rep 2 = -0.0972; Wolbachia per cell robust z, rep 3 = 0.0434
CG31102 [DRSC26350]: Wolbachia per cell robust z, rep 1 = 1.08; Wolbachia per cell robust z, rep 2 = 1.25; Wolbachia per cell robust z, rep 3 = 2.15

Additional results follow.
After knock-down of Srrm1 [DRSC09835], the record shows Wolbachia per cell robust z, rep 1 = -0.834; Wolbachia per cell robust z, rep 2 = -1.67; Wolbachia per cell robust z, rep 3 = 0.282.
Knock-down of klg [DRSC13591] gave: Wolbachia per cell robust z, rep 1 = -0.496; Wolbachia per cell robust z, rep 2 = 0.258; Wolbachia per cell robust z, rep 3 = 0.189.
For klg [DRSC16978] the deposit lists Wolbachia per cell robust z, rep 1 = -0.198; Wolbachia per cell robust z, rep 2 = 0.43; Wolbachia per cell robust z, rep 3 = 1.04.
Depletion of Ankle2 [DRSC20105] came out at: Wolbachia per cell robust z, rep 1 = 1.37; Wolbachia per cell robust z, rep 2 = -0.0274; Wolbachia per cell robust z, rep 3 = -8.69.
Against Ankle2 [DRSC20106], the entry reads Wolbachia per cell robust z, rep 1 = 0.482; Wolbachia per cell robust z, rep 2 = -0.602; Wolbachia per cell robust z, rep 3 = -0.247.
Against dmrt99B [DRSC22977], the entry reads Wolbachia per cell robust z, rep 1 = 0.662; Wolbachia per cell robust z, rep 2 = -1.57; Wolbachia per cell robust z, rep 3 = 0.207.
After knock-down of dmrt99B [DRSC25777] the results were Wolbachia per cell robust z, rep 1 = -0.0274; Wolbachia per cell robust z, rep 2 = -0.149; Wolbachia per cell robust z, rep 3 = -1.1.
Knock-down of CG13796 [DRSC24686] gave: Wolbachia per cell robust z, rep 1 = -0.388; Wolbachia per cell robust z, rep 2 = -0.814; Wolbachia per cell robust z, rep 3 = 0.221.
CG11029 [DRSC02119] showed Wolbachia per cell robust z, rep 1 = 1.16; Wolbachia per cell robust z, rep 2 = 0.0685; Wolbachia per cell robust z, rep 3 = 1.17.
Silencing of ndl [DRSC11374] resulted in: Wolbachia per cell robust z, rep 1 = -0.56; Wolbachia per cell robust z, rep 2 = -0.0376; Wolbachia per cell robust z, rep 3 = -5.12.
After knock-down of ndl [DRSC26902], the record shows Wolbachia per cell robust z, rep 1 = 0.432; Wolbachia per cell robust z, rep 2 = 0.437; Wolbachia per cell robust z, rep 3 = 0.311.
With knock-down of CG13989 [DRSC02321], the record shows Wolbachia per cell robust z, rep 1 = 0.401; Wolbachia per cell robust z, rep 2 = -1.94; Wolbachia per cell robust z, rep 3 = 0.674.
Silencing of CG14017 [DRSC02348] gave: Wolbachia per cell robust z, rep 1 = -0.194; Wolbachia per cell robust z, rep 2 = 0.515; Wolbachia per cell robust z, rep 3 = 0.558.
After knock-down of Kdm3 [DRSC16393], the screen gave Wolbachia per cell robust z, rep 1 = 0.254; Wolbachia per cell robust z, rep 2 = 0.748; Wolbachia per cell robust z, rep 3 = -2.4.
Depletion of Kdm3 [DRSC28659] came out at: Wolbachia per cell robust z, rep 1 = 1.12; Wolbachia per cell robust z, rep 2 = -1.18; Wolbachia per cell robust z, rep 3 = 0.876.
